Pooled drug test results. Numbers come from NIAID ChemDB, via PubChem.

All rows: tests in culture; species: Cryptococcus neoformans

ECn: concentration that inhibits the pathogen or its effect by n%. a–b is a range or a potency band. An empty or dashed field is not shown. Neighbouring rows are from separate reports. MIC50, MIC90 and the like: level of inhibition, or share of isolates inhibited.

structure | method | read-out | strain or isolate | setting | value
COc1ccc(Cc2nc(N=C3NC(=O)N(C)C3=O)n(C)c2Cc2ccc(OC)cc2)cc1 | - | MIC | - | - | 12.5 µg/mL
CCSc1cc(=S)ss1 | - | MIC | ATCC 32264 | - | 62.5 µg/mL
Cc1c(NC(=O)CSC(=S)N2CCCCC2C)c(=O)n(-c2ccccc2)n1C | - | MIC | KUEN 1048 | - | 12.5 µg/mL
Cc1coc2c1C(=O)[C@@H]1[C@](C)([C@H](O)CC[C@@]1(C)O)[C@@H]2O | broth dilution | MIC | ATCC 22402 | - | >256 µg/mL
CCOC(=O)c1c(C)nc(NCCCCNc2ccnc3cc(Cl)ccc23)nc1-c1ccccc1 | - | MIC99 | WP | - | 5.7 µg/mL
CC1=C2C(=O)c3c(C)coc3C[C@@]2(C)[C@H](O)C[C@H]1O | broth dilution | MIC | ATCC 22402 | - | 128 µg/mL
CC(N1CCN(c2ccc(-n3cnn(Cc4ccc(C(F)(F)F)cc4)c3=O)cc2F)CC1)C(O)(Cn1cncn1)c1ccc(F)cc1F | - | MIC90 | 8 strains | - | 0.19 µg/mL
COc1ccc2c(c1)cc1c(c3ccccc3n1C)[n+]2C | - | EC50 | ATCC 90113 | - | 4.3 µg/mL
CN[C@@H]1[C@H](O[C@@H]2OC[C@@H](O)[C@H](O)[C@H]2O)[C@@H](O)[C@H](O[C@H]2c3cc(C)c(C(=O)N[C@H](C)C(=O)O)c(O)c3-c3c(cc4c(c3O)C(=O)c3cc(OC)c(C(=O)O)c(O)c3C4=O)[C@@H]2O)O[C@@H]1C | - | MIC | IAM 4514 | - | >100 µg/mL
O=C(ONC1=Nc2cc(Cl)ccc2SCC1)c1ccccc1 | - | MIC | IMAT4711 | - | 50 µg/mL
Cn1cccc1C(Cc1ccc(N)cc1)n1ccnc1 | - | MIC | - | - | >300 µM
CC1=C2[C@@H](OC(=O)/C=C/c3ccccc3)[C@H](C(C)C)CC[C@]2(C)[C@@H](O)CC1=O | - | MFC | CECT1075 | - | 8 µg/mL
CC(C)(C)OC(=O)N1CCC(n2cc(-c3nc(-c4ccccc4)n[nH]3)nn2)CC1 | agar | MIC | - | - | >200 µg/mL
COc1ccc(Cc2nc(N=C3NC(=O)N(C)C3=O)n(C)c2Cc2ccc(O)cc2)cc1 | - | MIC | - | - | 12.5 µg/mL
c1ccc(CCCCCn2c3ccccc3c3nc4ccccc4cc32)cc1 | - | EC50 | ATCC 90113 | - | 9 µg/mL
C[C@H]1[C@H](O)[C@@H](C)/C=C/C=C/C=C/C=C/C=C/C=C/C=C/[C@H](O[C@@H]2O[C@H](C)[C@@H](O)[C@H](N)[C@@H]2O)C[C@@H]2O[C@](O)(C[C@@H](O)C[C@@H](O)CC[C@H](O)[C@@H](O)C[C@@H](O)CC(=O)O[C@H]1C)C[C@H](O)[C@H]2C(=O)O | broth dilution | MIC | ATCC66031 | 72 h | 0.5 µg/mL
CN1CCC(n2cc(-c3nc(-c4ccc(Cl)cc4)n[nH]3)nn2)CC1 | agar | MIC | - | - | >200 µg/mL
Oc1ccccc1N=Cc1ccccc1 | broth dilution | MIC | 27JF | - | 5.7 µg/mL
Clc1ccc(Cl)c(Oc2ccc(NC(=NCCCNc3ccnc4cc(Cl)ccc34)Nc3ccccc3)cc2)c1 | broth dilution / absorbance | MIC | - | - | >50 µg/mL
C[C@H]1C(=O)CCC2[C@]3(C)CC[C@@]4(C)C5CC(C)(C)CC[C@]5(C)CC[C@]4(C)C3CC[C@@]21C | absorbance | MIC | - | - | >250 µg/mL
Cc1coc2c1C(=O)[C@@H]1[C@@](C)(C2)[C@H](O)CC[C@@]1(C)O | broth dilution | MIC | ATCC 22402 | - | >256 µg/mL
Oc1ccccc1N=Cc1ccc2c(c1)OCO2 | - | MIC99 | 27JF | - | 11.3 µg/mL
CCSSc1ssc(=S)c1-c1ccccc1 | - | MIC | ATCC 32264 | - | 25 µg/mL
Fc1ccccc1CC(Cc1ccc(-c2ccccc2)cc1)n1ccnc1 | - | MFC | - | - | 33 µM
CCSc1ssc(=S)c1-c1ccccc1 | - | MIC | ATCC 32264 | - | 250 µg/mL
O=C(c1ccccc1)N1CCC(n2cc(-c3nc(-c4ccccc4)n[nH]3)nn2)CC1 | agar | MIC | - | - | 180 µg/mL
Cc1ccc(C(Cc2ccc(Cl)cc2)n2ccnc2)s1 | - | MIC | - | - | 4.7 µM
Cn1c2ccccc2c2nc3ccccc3cc21 | - | EC50 | ATCC 90113 | - | 62.5 µg/mL
CNC1C(C)OC(O[C@H]2c3cc(C)c(C(=O)NC(C)C(=O)O)c(OC)c3-c3c(cc4c(c3O)C(=O)c3cc(OC)cc(OC)c3C4=O)[C@@H]2O)C(O)C1OC1OCC(O)C(O)C1O | - | MIC | IAM 4514 | - | >100 µg/mL
N=c1oc2ccccc2c2csc(N)c12 | broth dilution | MIC | IP 90526 | - | 4 µg/mL
OC(Cn1cncn1)(Cn1cncn1)c1ccc(F)cc1F | broth dilution | MIC | ATCC MYA-737 | - | 1.6 µg/mL
COC(=O)NC1=Nc2ccc3ccccc3c2SC1 | - | MIC | IMAT4711 | - | 50 µg/mL
CC(C)(C)c1ccc(CN(Cc2cccs2)n2ccnc2)cc1 | - | MIC | - | - | 67 µM
CN[C@H]1CC[C@@H](c2ccc(Cl)c(Cl)c2)c2ccccc21 | broth dilution | MIC90 | UA 1993 | - | 5 µg/mL
ONC1=Nc2ccccc2SC(c2ccccc2)C1 | - | MIC | IMAT4711 | - | 50 µg/mL
CC1(C)C(=O)CC[C@@]2(C)C1CC[C@]1(C)[C@@H]2[C@H](O)C=C2[C@@H]3C[C@@](C)(C(=O)O)CC[C@]3(C)CC[C@]21C | absorbance | MIC | - | - | 47 µg/mL
Oc1ccccc1N=Cc1ccc(F)cc1 | broth dilution | MIC | ATCC 62066 | - | 1.4 µg/mL
C[C@H]([C@](O)(Cn1cncn1)c1ccc(F)cc1F)S(C)(=O)=O | - | MIC | B4500 (AZOLE-S) | - | 2 µM
Cn1ccc(C(Cc2ccc(N)cc2)n2ccnc2)c1 | - | MIC | - | - | 300 µM
CC(=O)ONC1=Nc2ccc(Cl)cc2SCC1 | - | MIC | IMAT4711 | - | 25 µg/mL
CCOC(=O)c1c(C)nc(NCCCCNc2ccnc3cc(Cl)ccc23)nc1-c1ccc(F)cc1 | - | MIC99 | LMM 820 | - | 8 µg/mL
O=C1c2ccccc2C(=O)C2CC(O)OCC12 | broth dilution | MIC | ATCC 32608 | - | 87.3 µM
Cn1c2ccccc2c2c1cc1cc(Br)ccc1[n+]2C | - | EC50 | ATCC 90113 | - | 0.4 µg/mL
COc1c(O)c2c(=O)cc(OC)c3c4c(OC)cc(=O)c5c(O)c(OC)c6c(c(c1CC(C)=C6OC(C)=O)c23)c54 | - | MIC | - | - | >100 µg/mL
COc1ccc(-c2c3c(N)c4c(nc3nc3c2c(C)nn3-c2ccccc2)CCCC4)cc1 | broth dilution / absorbance | MIC50 | ATCC 32264 | - | 125 µg/mL
C[C@H]1[C@H](O)[C@@H](C)/C=C/C=C/C=C/C=C/C=C/C=C/C=C/[C@H](O[C@@H]2O[C@H](C)[C@@H](O)[C@H](N)[C@@H]2O)C[C@@H]2O[C@](O)(C[C@@H](O)C[C@@H](O)CC[C@H](O)[C@@H](O)C[C@@H](O)CC(=O)O[C@H]1C)C[C@H](O)[C@H]2C(=O)O | broth dilution | MIC100 | MTCC 4406 | - | 0.25 µg/mL
CNC(NC)c1ccc2cc(-n3cc(CCCO)nn3)c(=O)oc2c1 | broth dilution | MIC | ATCC 96806 | - | >750 µg/mL
COc1ccc(-c2n[nH]c(-c3cn(C4CCN(C)CC4)nn3)n2)cc1 | agar | MIC | - | - | 150 µg/mL
CCCCCCCC(=O)CCCCCC/C=C/C(C(=O)NC(Cc1ccc(OCC=C(C)C)cc1)C(=O)O)C(O)(CC(=O)O)C(=O)O | - | MIC | TIMM0354 | - | 6.25 µg/mL
CC(=O)ONC1=Nc2ccccc2SC1c1ccccc1 | - | MIC | IMAT4711 | - | 10 µg/mL
CC(N1CCN(c2ccc(-n3cnn(Cc4ccc(OC(F)(F)F)cc4)c3=O)cc2F)CC1)C(O)(Cn1cncn1)c1ccc(F)cc1F | - | MIC90 | 8 strains | - | 0.19 µg/mL
CCC(C)CC(C)CCCCCCCCC(=O)N[C@H]1C[C@@H](O)[C@H](NCCN)NC(=O)[C@@H]2[C@@H](O)CCN2C(=O)[C@H]([C@H](O)CCN)NC(=O)[C@H]([C@H](O)[C@@H](O)c2ccc(O)cc2)NC(=O)[C@@H]2C[C@@H](O)CN2C(=O)[C@H]([C@@H](C)O)NC1=O | - | MIC | 1041.007 | - | >2 µg/mL
CC(C)([C@](O)(Cn1cncn1)c1ccc(C(F)(F)F)cc1)S(C)(=O)=O | - | MIC | 30 strains | - | 4–256 µg/mL
Brc1ccc2[nH+]c3c4ccccc4n(CCCCCC4CCCCC4)c3cc2c1 | - | EC50 | ATCC 90113 | - | >50 µg/mL
Cc1nn(-c2ccccc2)c2nc3nc4c(c(N)c3c(-c3ccc(Cl)cc3)c12)CCCC4 | broth dilution / absorbance | MIC100 | ATCC 32264 | - | >250 µg/mL
CCOC(=O)c1c(C)nc(OCCCNc2ccnc3cc(Cl)ccc23)nc1-c1ccccc1 | - | MIC99 | F-10 | - | 4 µg/mL
CN=[N+]([O-])CC[C@H](N)C(=O)O | - | MIC80 | 422 | - | >200 µg/mL
S=c1cc(SCc2ccccc2)ss1 | - | MIC | ATCC 32264 | - | 125 µg/mL
CN1CCC(n2cc(-c3nc(-c4ccccc4)n[nH]3)nn2)CC1 | agar | MIC | - | - | 150 µg/mL
Oc1ccc(O)c(C=Nc2ccccc2O)c1 | broth dilution | MIC | GM | - | 8 µg/mL
Cn1ccc(C(Cc2ccc(Cl)cc2Cl)n2ccnc2)c1 | - | MIC | - | - | 37.5 µM
Clc1ccccc1CC(Cc1ccc(-c2ccccc2)cc1)n1ccnc1 | - | MIC | - | - | 5.5 µM
COc1ccc(-c2c3c(N)c4c(nc3nc3c2c(C)nn3-c2ccccc2)CCCCC4)cc1 | broth dilution / absorbance | MIC80 | ATCC 32264 | - | >250 µg/mL
CCC(C)n1ncn(-c2ccc(N3CCN(c4ccc(OC[C@H]5CO[C@](Cn6cncn6)(c6ccc(Cl)cc6Cl)O5)cc4)CC3)cc2)c1=O | - | MIC50 | 12 strains | - | 0.25 µg/mL
O=C1N[C@@H](Cc2c[nH]c3ccccc23)C(=O)N2CCC[C@@H]12 | broth dilution | MIC100 | - | - | 2 µg/mL
CN[C@@H]1[C@H](O[C@@H]2OC[C@@H](O)[C@H](O)[C@H]2O)[C@@H](O)[C@H](O[C@H]2c3c(N)c(C)c(C(=O)N[C@H](C)C(=O)O)c(O)c3-c3c(cc4c(c3O)C(=O)c3cc(OC)cc(O)c3C4=O)[C@@H]2O)O[C@@H]1C | - | MIC | IAM 4514 | - | >100 µg/mL
CCCCCCCCSc1cc(=S)ss1 | - | MIC | ATCC 32264 | - | 125 µg/mL
CC(C)=C[C@H]1C[C@](C)(O)C2C3CCC4[C@@]5(C)CCC[C@](C)(O[C@H]6OC[C@H](O)[C@H](OC7O[C@H](CO)[C@@H](O)[C@H](O)[C@H]7OC(=O)/C=C/c7ccc(O)cc7)[C@H]6O[C@H]6C[C@H](CO)[C@@H](O)[C@@H]6O)C5CC[C@@]4(C)[C@@]34CO[C@@]2(C4)O1 | - | MIC | - | - | 50 µg/mL
C=C1CC[C@@H]2C(C)(C)CCC[C@@]2(C)[C@@H]1C/C=C/C(C=O)CC=O | - | MIC | ATCC 90113 | - | 20 µg/mL
Clc1ccc(CC(c2ccc(Cl)s2)n2ccnc2)cc1 | - | MIC | - | - | 1.2 µM
Cc1ccc(-c2c3c(N)c4c(nc3nc3c2c(C)nn3-c2ccccc2)CCC4)cc1 | broth dilution / absorbance | MIC100 | ATCC 32264 | - | 250 µg/mL
O=C(ONC1=Nc2ccccc2SCC1)c1ccccc1 | - | MIC | IMAT4711 | - | >100 µg/mL
NCCNC(=O)C1=Nc2ccc(NC(=O)C3=Nc4ccc(C(=O)Nc5ccc6[nH]c(C(=O)NCCN)cc6c5)cc4C3)cc2C1 | - | MIC | Serotype D | - | 8 µg/mL
Clc1ccc(CC(Cc2ccc(-c3ccccc3)cc2)n2ccnc2)c(Cl)c1 | - | MIC | - | - | 5.5 µM
CC1CC(NOC(=O)c2ccccc2)=Nc2ccccc2S1 | - | MIC | IMAT4711 | - | 50 µg/mL
Fc1ccc(CC(Cc2ccc(-c3ccccc3)cc2)n2ccnc2)c(F)c1 | - | MFC | - | - | 33 µM
Cc1ccc(C(Cc2ccc([N+](=O)[O-])cc2)n2ccnc2)s1 | - | MIC | - | - | 9.4 µM

5 of the rows above, restated:

{"structure": "CC(=O)ONC1=Nc2ccccc2SC1c1ccccc1", "read-out": "MIC", "strain or isolate": "IMAT4711", "value": "10 µg/mL"}
{"structure": "CC(C)(C)c1ccc(CN(Cc2cccs2)n2ccnc2)cc1", "read-out": "MIC", "value": "67 µM"}
{"structure": "COc1ccc(-c2c3c(N)c4c(nc3nc3c2c(C)nn3-c2ccccc2)CCCCC4)cc1", "method": "broth dilution / absorbance", "read-out": "MIC80", "strain or isolate": "ATCC 32264", "value": ">250 µg/mL"}
{"structure": "CC(C)=C[C@H]1C[C@](C)(O)C2C3CCC4[C@@]5(C)CCC[C@](C)(O[C@H]6OC[C@H](O)[C@H](OC7O[C@H](CO)[C@@H](O)[C@H](O)[C@H]7OC(=O)/C=C/c7ccc(O)cc7)[C@H]6O[C@H]6C[C@H](CO)[C@@H](O)[C@@H]6O)C5CC[C@@]4(C)[C@@]34CO[C@@]2(C4)O1", "read-out": "MIC", "value": "50 µg/mL"}
{"structure": "Cc1ccc(C(Cc2ccc([N+](=O)[O-])cc2)n2ccnc2)s1", "read-out": "MIC", "value": "9.4 µM"}